Data as given in article PMC9823235 (2022).

Target: Shiga toxin 2a (Stx2a) holotoxin (enterohemorrhagic Escherichia coli (encoded by lysogenic lambdoid phages)) (UniProt P09385)

P11, 11 amino-acid peptide mimicking the C-terminal 11 amino acids of the CTD of the ribosomal P-proteins
Kd: 48 µM
